Experimental findings from article PMC2928791 (2010) are described below.

For the assay, the target named is PV non-structural protein 2C^ATPase (wt) (poliovirus (PV; the paper's PV is type 1 Mahoney, PVM)) (UniProt P03300). Put plainly: co-IP.

“CAV20 structural protein VP3 (wt) (natural protein)” had a percent of the level in the CAV20 2C^ATPase and CAV20 VP3 Co-IP reaction of 32%.
